From ChEMBL document CHEMBL5131497, “Design, Synthesis, and Characterization of TNP-2198, a Dual-Targeted Rifamycin-Nitroimidazole Conjugate with Potent Activity against Microaerophilic and Anaerobic Bacterial Pathogens” (J Med Chem, 2022)

Columns and labels:
Assay type in all cases: functional
Helicobacter pylori [1] = test: Antibacterial activity against rifampicin-resistant Helicobacter pylori CB1903 harboring rpoBD530V mutant at 1:1 compound to rifampicin molar ratio measured after 5 days in presence of rifampicin by agar dilution method; conditions: CB1903, 120 h, time 5 day
Helicobacter pylori [2] = test: Antibacterial activity against metronidazole/rifampicin-resistant Helicobacter pylori CB1893 harboring rpoBL525I/D530N/rdxAR16S mutant at 1:1 compound to rifabutin molar ratio measured after 5 days in presence of rifabutin by agar dilution method; conditions: CB1893, 120 h, time 5 day
Helicobacter pylori [3] = test: Antibacterial activity against metronidazole/rifampicin-resistant Helicobacter pylori CB1771 harboring rpoBL525I/D530N/rdxAE75stop mutant at 1:1 compound to rifabutin molar ratio measured after 5 days in presence of rifabutin by agar dilution method; conditions: CB1771, 120 h, time 5 day

Measured: MIC

Cc1ncc([N+](=O)[O-])n1CCO [METRONIDAZOLE]
16 µg/mL: Helicobacter pylori [1] | Helicobacter pylori [2] | Helicobacter pylori [3]
